A mixed list of measured activities; the numbers were collected in NIAID ChemDB.

All rows: whole-cell or culture tests; species: HIV-1

An empty or dashed field is not shown. Rows are shuffled and stem from different studies. a–b is a range or a potency band. ECn is the concentration giving n% inhibition of infection, replication or growth.

{"SMILES": "CCCCCc1ccc(-c2cc3cn(C/C=C/C(O)CO)c(=O)nc3o2)cc1", "endpoint": "EC50", "read by": "RT activity", "cell line": "PBMC", "strain or isolate": "LAI", "result": "36.7 µM"}
{"SMILES": "COC(=O)c1cc(Nc2cc(C)[n+](C)c(N)n2)cc(C(=O)OC)c1", "endpoint": "EC50", "strain or isolate": "ADA", "result": ">1 µM"}
{"SMILES": "COc1ccc(S(=O)(=O)N(CC2CCCC2)C[C@@H](O)[C@H](Cc2ccccc2)NC(=O)O[C@H]2CCOC2)cc1", "endpoint": "EC50", "cell line": "CEM + CEM-SS", "strain or isolate": "IIIB", "result": "<0.023 µM"}
{"SMILES": "CC(C)(C)OC(=O)N[C@@H](Cc1ccccc1)[C@H](O)CNC[C@@H](O)[C@H](Cc1ccc(OCC(=O)N2CCOCC2)cc1)NC(=O)OC(C)(C)C", "endpoint": "EC50", "mutations": "PR-V82A", "read by": "p24", "cell line": "MT-2", "strain or isolate": "NL4-3", "result": "0.13 µM"}
{"SMILES": "CC(C)C[C@H](NC(=O)[C@H](Cc1ccccc1)NC(=O)CNC(=O)CNC(=O)[C@@H](N)Cc1ccc(O)cc1)C(=O)NC[C@H]1OC(O)[C@H](O)[C@@H](O)[C@@H]1O", "endpoint": "EC50", "read by": "syncytia / RT activity", "cell line": "PBL", "result": ">140 µM"}
{"SMILES": "CCOP(=O)(CO[C@H]1C[C@@H](n2cnc3c(N)ncnc32)C(F)(F)C1)OCC", "endpoint": "EC50", "read by": "RT activity", "cell line": "PBMC", "strain or isolate": "LAI", "result": "42 µM"}
{"SMILES": "Cc1cn([C@@H]2O[C@H](CO[Si](C)(C)C(C)(C)C)C3(OS(=O)(=O)C=C3N)[C@H]2O[Si](C)(C)C(C)(C)C)c(=O)n(CCO)c1=O", "endpoint": "EC50", "result": "0.03–0.76 µM"}
{"SMILES": "C[C@H](NC(=O)[C@H](Cc1ccc2ccccc2c1)NC(=O)[C@H](CCCN=C(N)N)NC(=O)[C@@H](N)CCCN=C(N)N)C(=O)N[C@@H](Cc1ccc(O)cc1)C(=O)N[C@@H](CCCN=C(N)N)C(=O)O", "endpoint": "EC50", "read by": "cytopathic effect / MTT", "cell line": "MT-4", "strain or isolate": "IIIB", "result": ">100 µM"}
{"SMILES": "CC(=O)N[C@H](C(=O)N[C@@H](Cc1ccccc1)[C@@H](O)CN(Cc1ccccc1)NC(=O)[C@@H](NC(C)=O)C(C)C)C(C)C", "endpoint": "EC50", "read by": "RT activity", "cell line": "MT-2", "strain or isolate": "LAV", "result": "<10 µM"}
{"SMILES": "NCCCC[C@@H](NC(=O)[C@H](Cc1ccc2ccccc2c1)NC(=O)[C@H](CCCN=C(N)N)NC(=O)[C@@H](N)CCCN=C(N)N)C(=O)N1CCC[C@H]1C(=O)N[C@@H](CCCN=C(N)N)C(=O)O", "endpoint": "EC50", "read by": "cytopathic effect / MTT", "cell line": "MT-4", "strain or isolate": "IIIB", "result": ">100 µM"}
{"SMILES": "CCCCNP(=O)(OC[C@@H]1O[C@H](n2cc(C)c(=O)[nH]c2=O)C[C@H]1N=[N+]=[N-])OC[C@H]1O[C@@H](n2cc(C)c(=O)[nH]c2=O)C[C@@H]1N=[N+]=[N-]", "endpoint": "EC50", "read by": "cytopathic effect / MTT", "cell line": "MT-4", "strain or isolate": "IIIB", "result": "3 µM"}
{"SMILES": "O=c1[nH]c(=O)n([C@H]2O[C@@H](CO)C[C@H]2F)cc1I", "endpoint": "EC50", "cell line": "PBM", "result": ">100 µM"}
{"SMILES": "O=C1CCSC(c2c(Cl)cccc2Cl)N1Cc1ccco1", "endpoint": "EC50", "mutations": "RT", "read by": "cytopathic effect", "cell line": "MT-4", "strain or isolate": "IIIB", "result": "5.65 µM"}
{"SMILES": "Nc1ccn([C@H]2CC[C@@H](CO)O2)c(=O)n1", "endpoint": "EC50", "read by": "cytopathic effect / MTT", "cell line": "MT-4", "strain or isolate": "IIIB", "result": "7.5 µM"}
{"SMILES": "Cc1cn([C@H]2C[C@H](N=[N+]=[N-])[C@@H](CO)O2)c(=O)[nH]c1=O", "endpoint": "EC50", "read by": "p24", "cell line": "MT-4", "strain or isolate": "263", "result": "0.02 µM"}
{"SMILES": "CCOC(=O)c1c(C(C)C)c(C#N)c(=N)n2ccccc12", "endpoint": "EC50", "read by": "cytopathic effect", "cell line": "MT-2", "result": "<4 µM"}
{"SMILES": "CC(C)C[C@H](NC(=O)[C@H](Cc1ccccc1)NC(=O)CNC(=O)CNC(=O)[C@@H](N)Cc1ccc(O)cc1)C(=O)OC[C@H]1O[C@@H](OCc2ccccc2)[C@H](O)[C@@H](O)[C@@H]1O", "endpoint": "EC50", "read by": "syncytia / RT activity", "cell line": "PBL", "result": ">100 µM"}
{"SMILES": "O=C1CSC(c2c(F)cccc2F)N1c1cccc(C(F)(F)F)c1", "endpoint": "EC50", "read by": "cytopathic effect", "cell line": "MT-4", "strain or isolate": "IIIB", "result": "35.9 µM"}
{"SMILES": "CC(C)(C)NC(=O)[C@@H]1C[C@@H]2CCCC[C@@H]2CN1C[C@@H](O)[C@H](Cc1ccccc1)NC(=O)[C@H](CC(N)=O)NC(=O)c1ccc2ccccc2n1", "endpoint": "EC50", "mutations": "PR-L63P", "read by": "p24", "cell line": "MT-4", "strain or isolate": "NL4-3", "result": "<0.05 µM"}
{"SMILES": "Cc1cn([C@@H]2C[C@@H](N=[N+]=[N-])[C@H](COP(N)(=O)OC[C@H]3O[C@@H](n4cc(C)c(=O)[nH]c4=O)C[C@@H]3N=[N+]=[N-])O2)c(=O)[nH]c1=O", "endpoint": "EC50", "read by": "cytopathic effect / MTT", "cell line": "MT-4", "strain or isolate": "IIIB", "result": "0.39 µM"}
{"SMILES": "CCOP(=O)(CO[C@H]1C[C@@H](n2cnc3c(Cl)nc(N)nc32)C(F)(F)C1)OCC", "endpoint": "EC90", "read by": "RT activity", "cell line": "PBMC", "strain or isolate": "LAI", "result": "95 µM"}
{"SMILES": "CC(C)(C)NC(=O)[C@@H]1C[C@@H]2CCCC[C@@H]2CN1C[C@@H](O)[C@H](Cc1ccccc1)NC(=O)[C@H](CC(N)=O)NC(=O)c1ccc2ccccc2n1", "endpoint": "EC50", "cell line": "CEM + CEM-SS", "strain or isolate": "IIIB", "result": "<0.022 µM"}
{"SMILES": "CC(C)C[C@H](NC(=O)[C@H](Cc1ccccc1)NC(=O)CNC(=O)CNC(=O)[C@@H](N)Cc1ccc(O)cc1)C(=O)N[C@@H]1O[C@H](CO)[C@@H](O)[C@H](O)[C@H]1O", "endpoint": "EC50", "read by": "syncytia / RT activity", "cell line": "PBL", "result": ">140 µM"}
{"SMILES": "O=c1nc2oc(-c3ccccc3)cc2cn1COCCO", "endpoint": "EC90", "read by": "RT activity", "cell line": "PBMC", "strain or isolate": "LAI", "result": ">100 µM"}
{"SMILES": "CC(C)[C@@H](C(=O)N[C@@H](Cc1ccccc1)C[C@H](O)[C@H](Cc1ccccc1)NC(=O)OCc1cncs1)N1CCCNC1=O", "endpoint": "EC50", "read by": "cytopathic effect / MTT", "cell line": "MT-4", "result": "0.015 µM"}
{"SMILES": "NC(N)=NCCC[C@H](NC(=O)[C@@H](Cc1ccc(O)cc1)NC(=O)[C@H](Cc1ccc2ccccc2c1)NC(=O)[C@H](CCCN=C(N)N)NC(=O)[C@@H](N)CCCN=C(N)N)C(=O)O", "endpoint": "EC50", "read by": "cytopathic effect / MTT", "cell line": "MT-4", "strain or isolate": "IIIB", "result": ">100 µM"}
{"SMILES": "Cc1ccc(CN2C(=O)CSC2c2c(F)cccc2F)o1", "endpoint": "EC50", "read by": "cytopathic effect", "cell line": "MT-4", "strain or isolate": "IIIB", "result": "13.06 µM"}
{"SMILES": "Nc1nc2c(ncn2[C@@H]2C[C@H](OCP(=O)(O)O)CC2(F)F)c(=O)[nH]1", "endpoint": "EC90", "read by": "RT activity", "cell line": "PBMC", "strain or isolate": "LAI", "result": "95 µM"}
{"SMILES": "CCCCCCCCc1cc2cn(COCCO)c(=O)nc2o1", "endpoint": "EC90", "read by": "RT activity", "cell line": "PBMC", "strain or isolate": "LAI", "result": ">100 µM"}
{"SMILES": "Cc1nc(N2C(=O)CSC2c2c(F)cccc2Cl)ccc1Br", "endpoint": "EC50", "mutations": "RT", "read by": "cytopathic effect", "cell line": "MT-4", "strain or isolate": "IIIB", "result": "0.95 µM"}
{"SMILES": "CC(C)CN(C[C@@H](O)[C@H](Cc1ccccc1)NC(=O)[C@H](CC(N)=O)NC(=O)c1ccc2ccccc2n1)C(=O)NC(C)(C)C", "endpoint": "EC95", "mutations": "PR-L10R M46I V82T", "read by": "p24", "cell line": "MT-4", "strain or isolate": "NL4-3", "result": "0.1 µM"}
{"SMILES": "Nc1ncnc2c1ncn2[C@H]1CC[C@@H](CO)O1", "endpoint": "EC50", "read by": "cytopathic effect", "cell line": "ATH8", "strain or isolate": "LAV", "result": "<10 µM"}
{"SMILES": "Cc1cn([C@@H]2O[C@H](CO[Si](C)(C)C(C)(C)C)C3(OS(=O)(=O)C=C3N)[C@H]2O[Si](C)(C)C(C)(C)C)c(=O)n(CC(=O)OCc2ccccc2)c1=O", "endpoint": "EC50", "result": "0.03–0.76 µM"}
{"SMILES": "O=c1[nH]c(=O)n([C@@H]2O[C@@H](CO)C[C@H]2F)cc1Br", "endpoint": "EC50", "cell line": "PBM", "result": ">100 µM"}
{"SMILES": "CC(C)C[C@H](NC(=O)[C@H](Cc1ccccc1)NC(=O)CNC(=O)CNC(=O)[C@@H](N)Cc1ccc(O)cc1)C(=O)O[C@@H]1O[C@H](CO)[C@@H](O)[C@H](O)[C@H]1O", "endpoint": "EC50", "read by": "syncytia / RT activity", "cell line": "PBL", "result": ">100 µM"}
{"SMILES": "O=c1[nH]c(=O)n([C@H]2O[C@@H](CO)C[C@H]2F)cc1Br", "endpoint": "EC50", "cell line": "PBM", "result": ">100 µM"}
{"SMILES": "Cc1ccccc1C(=S)Nc1ccc(Cl)c(C(=O)OC2CCCCC2)c1", "endpoint": "EC90", "read by": "RT activity", "cell line": "MT-2", "strain or isolate": "LAV", "result": ">10 µM"}
{"SMILES": "CC(C)=CCOc1cc(NC(=S)c2ccoc2C)ccc1Cl", "endpoint": "EC50", "mutations": "D36G", "read by": "luminescence", "cell line": "TZM-bl", "strain or isolate": "NL4-3", "result": "61.66 µM"}
{"SMILES": "O=C1CSC(c2cccnc2)N1Cc1ccco1", "endpoint": "EC50", "read by": "cytopathic effect", "cell line": "MT-4", "strain or isolate": "IIIB", "result": "271 µM"}
{"SMILES": "Nc1nc(=O)n([C@H]2O[C@@H](CO)C[C@H]2F)cc1Br", "endpoint": "EC50", "cell line": "PBM", "result": ">100 µM"}
{"SMILES": "Cc1cn([C@@H]2O[C@H](CO[Si](C)(C)C(C)(C)C)C3(OS(=O)(=O)C=C3N)[C@H]2O[Si](C)(C)C(C)(C)C)c(=O)n(CC(N)=O)c1=O", "endpoint": "EC50", "result": "0.03–0.76 µM"}
{"SMILES": "CCCCCC#Cc1cn(COCCO)c(=O)[nH]c1=O", "endpoint": "EC90", "read by": "RT activity", "cell line": "PBMC", "strain or isolate": "LAI", "result": ">100 µM"}
{"SMILES": "Nc1nc(=O)n([C@H]2O[C@@H](CO)C[C@H]2F)cc1F", "endpoint": "EC50", "cell line": "PBM", "result": "48 µM"}
{"SMILES": "Cc1nc(N2C(=O)CSC2c2c(F)cccc2F)ccc1Br", "endpoint": "EC50", "read by": "cytopathic effect", "cell line": "MT-4", "strain or isolate": "IIIB", "result": "1.29 µM"}
{"SMILES": "CNC(=O)Cn1c(=O)c(C)cn([C@@H]2O[C@H](CO[Si](C)(C)C(C)(C)C)C3(OS(=O)(=O)C=C3N)[C@H]2O[Si](C)(C)C(C)(C)C)c1=O", "endpoint": "EC50", "result": "0.03–0.76 µM"}

For reference, 4 entries again:

SMILES	endpoint	mutations	read by	cell line	strain or isolate	result
O=C1CSC(c2c(F)cccc2F)N1c1cccc(C(F)(F)F)c1	EC50		cytopathic effect	MT-4	IIIB	35.9 µM
O=c1[nH]c(=O)n([C@H]2O[C@@H](CO)C[C@H]2F)cc1I	EC50			PBM		>100 µM
CCCCCc1ccc(-c2cc3cn(C/C=C/C(O)CO)c(=O)nc3o2)cc1	EC50		RT activity	PBMC	LAI	36.7 µM
CC(C)(C)OC(=O)N[C@@H](Cc1ccccc1)[C@H](O)CNC[C@@H](O)[C@H](Cc1ccc(OCC(=O)N2CCOCC2)cc1)NC(=O)OC(C)(C)C	EC50	PR-V82A	p24	MT-2	NL4-3	0.13 µM